Measured values from several laboratories, pooled; numbers as filed in NIAID ChemDB.

Shared fields: growth or infection tests; organism: HIV-1

Blank or dashed fields: not listed here. Lines come from different laboratories, so protocols vary. ECn: concentration that inhibits the pathogen or its effect by n%. a–b is a range or a potency band.

smiles,read by,read-out,strain,conditions,cell line,changes,value
CCCCC(=O)Oc1ccc(COP(=O)(Oc2ccc(OC(=O)CCC(=O)OCCOCCOCCOC)cc2)OP(=O)(O)OP(=O)(O)OC[C@@H]2C=C[C@H](n3cc(C)c(=O)[nH]c3=O)O2)cc1,syncytia / visual reading,EC50,IIIB,,CEM,,0.34 µM
COC(=O)N[C@H](C(=O)N[C@@H](Cc1ccc(C#Cc2ccc(N3CC4CCC(C3)N4CC(F)F)nc2)cc1)[C@@H](O)CN(Cc1c(F)cc(-c2ccn(C(F)F)n2)cc1F)NC(=O)[C@@H](NC(=O)OC)C(C)(C)C(F)(F)F)C(C)(C)C(F)(F)F,luminescence,EC50,IIIB,,MT-4,,0.03703 µM
CN(C(=O)[C@@H](CCc1ccccc1)NC(=O)Cc1c[nH]c2ccccc12)c1ccccn1,cytopathic effect,EC50,NL4-3,,,T107N,28 µM
CCOC(=O)c1cccn1S(=O)(=O)c1cc(Cl)ccc1NC(=O)c1ccccc1,cytopathic effect / XTT,EC50,IIIB,,MT-4,,50 µM
Cc1cn([C@H]2C[C@H](N=[N+]=[N-])[C@@H](CCO)O2)c(=O)[nH]c1=O,cytopathic effect / trypan blue,EC50,IIIB,,MT-4,,>200 µg/mL
Nc1nccc2c1ncn2[C@@H]1C=C(CO)[C@@H](O)[C@H]1O,p24,EC50,14A-4/87 PRE-AZT,,PBMC,,0.0105 µM
O=C(O)c1cn(-c2ccccc2)c2ccc(Cc3cccc(Cl)c3F)c(O)c2c1=O,,EC50,IIIB,,C8166,,0.31 µM
CC(C)C1=C2[C@H]3CC[C@@H]4[C@@]5(C)CC[C@H](OC(=O)[C@H]6C[C@@H](C(=O)O)C6(C)C)C(C)(C)[C@@H]5CC[C@@]4(C)[C@]3(C)CC[C@@]2(CC(=O)NCC(C)(C)NC(=O)c2ccc(Cl)cc2OCCN2CCS(=O)(=O)CC2)CC1=O,p24 / ELISA,EC50,92HT599,,MT-2,,<1 µM
COC(=O)N[C@H](C(=O)NN(Cc1c(F)cc(-c2cnccn2)cc1F)C[C@H](O)[C@H](Cc1ccc(C#Cc2ccc(N3CC4CCC(C3)N4C3COC3)nc2C)cc1)NC(=O)[C@@H](NC(=O)OC)C(C)(C)C(F)(F)F)C(C)(C)C,luminescence,EC50,IIIB,,MT-4,,0.00404 µM
CC(C)C1=C2[C@H]3CC[C@@H]4[C@@]5(C)CC[C@H](OC(=O)[C@H]6C[C@@H](C(=O)O)C6(C)C)C(C)(C)[C@@H]5CC[C@@]4(C)[C@]3(C)CC[C@@]2([C@@H](O)CNC(=O)C2(NC(=O)c3ccc(Cl)cc3)CC2)CC1=O,p24 / ELISA,EC50,92HT599,,MT-2,,<1 µM
O=C(NCc1ccc(F)cc1F)c1cn2c(c(O)c1=O)C(=O)N1C3CC(COC1C2)C3,GFP,EC50,NL4-3,0% human serum,MT-4,,0.002 µM
CC(C)C1=C2[C@H]3CC[C@@H]4[C@@]5(C)CC[C@H](OC(=O)[C@H]6C[C@@H](C(=O)O)C6(C)C)C(C)(C)[C@@H]5CC[C@@]4(C)[C@]3(C)CC[C@@]2(CC(=O)NCC(F)(CO)NC(=O)c2ccc(Cl)cc2)CC1=O,p24 / ELISA,EC50,92HT599,,MT-2,,<1 µM
Nc1nccc2c1ncn2[C@@H]1O[C@H](CO)[C@@H](O)[C@H]1O,p24,EC50,A012 PRE-AZT,,PBMC,,0.144 µM
CCNCC(=O)Nc1ccc(Cl)cc1S(=O)(=O)n1cccc1C(=O)OCC,cytopathic effect / XTT,EC50,IIIB,,MT-4,,1 µM
CCCCCCCCCCCCCCC(=O)Oc1ccc(COP(=O)(Oc2ccc(OC(=O)CCC(=O)OCCOCCOCCOC)cc2)OP(=O)(O)OP(=O)(O)OC[C@@H]2C=C[C@H](n3cc(C)c(=O)[nH]c3=O)O2)cc1,syncytia / visual reading,EC50,IIIB,,CEM,,0.26 µM
Oc1cc(-c2ccc3cc(O)c(O)c(O)c3c2)cc(O)c1O,,EC50,,,,,>1 µM
COC(=O)N[C@H](C(=O)N[C@@H](Cc1ccc(C#Cc2ccc(N3CC4CCC(C3)N4C3(C)COC3)nc2)cc1)[C@@H](O)CN(Cc1c(F)cc(-c2ccn(C(F)F)n2)cc1F)NC(=O)[C@@H](NC(=O)OC)C(C)(C)C(F)(F)F)C(C)(C)C(F)(F)F,luminescence,EC50,IIIB,,MT-4,,0.00264 µM
CC(C)(C)NC(=O)[C@@H]1C[C@@H]2CCCC[C@@H]2CN1C[C@@H](OC(=O)NCCCCOc1ccc(C[C@H](N)C(=O)O)cc1)[C@H](Cc1ccccc1)NC(=O)[C@H](CC(N)=O)NC(=O)c1ccc2ccccc2n1,cytopathic effect / MTT,EC50,IIIB,,MT-4,,6 µM
CCOC(=O)c1cccn1S(=O)(=O)c1ccc(N)cc1,cytopathic effect / XTT,EC50,IIIB,,MT-4,,179 µM
CC(C)(C)NC(=O)[C@@H]1CN(Cc2cccnc2)CCN1C[C@@H](O)C[C@@H](Cc1ccccc1)C(=O)N[C@H]1c2ccccc2C[C@H]1OC(=O)[C@H](Cc1ccccc1)NC(=O)OC(C)(C)C,RT activity,EC50,LAI,,CEM,,0.43 µM
Cc1cn([C@H]2C[C@H](N=[N+]=[N-])C([C@@H](O)CO)O2)c(=O)[nH]c1=O,cytopathic effect / trypan blue,EC50,IIIB,,MT-4,,>200 µg/mL
CC(C)CN(C[C@@H](O)[C@H](Cc1cc(F)cc(F)c1)NC(=O)O[C@H]1C2CO[C@H]3OCC1C3C2)S(=O)(=O)c1ccc2nc(NC3CC3)sc2c1,p24 / luminescence,EC50,LAI,,MT-2,,0.000017 µM
Cc1ccc(-c2c([C@H](OC(C)(C)C)C(=O)O)c(C(F)(F)F)c3c(c2C(F)(F)F)CN(C(C(=O)O)c2ccccc2)C3)cc1,luciferase,EC50,,,MT-4,,4.4 µM
N[C@@H](CC(=O)N[C@@H](CC(=O)O)C(=O)O)C(=O)O,syncytia,EC90,MN,,CEM/MOLT-4,,>100 µg/mL
C=C(C)OC(=O)N1c2cc(Cl)ccc2NC(=S)C1(C)C,p24,EC50,MN,,PBL,,0.007 µM
Cc1c(-c2c([C@H](OC(C)(C)C)C(=O)O)c(C(F)(F)F)c3c(c2C(F)(F)F)CN(C(=O)c2cccc(F)c2)C3)cc(F)c2c1CCCO2,luciferase,EC50,,,MT-4,,0.004 µM
CCOP(=O)(NCCCC(=O)OC)OC[C@H]1O[C@@H](n2cc(C)c(=O)[nH]c2=O)C[C@@H]1N=[N+]=[N-],ELISA,EC50,RF,,C8166,,100 µM
CC(C)(C)NC(=O)[C@@H]1CN(Cc2cccnc2)CCN1C[C@@H](O)C[C@@H](Cc1ccccc1)C(=O)N[C@H]1c2ccccc2C[C@H]1OC(=O)CCCCOc1ccc(C[C@H](NC(=O)OC(C)(C)C)C(=O)O)cc1,cytopathic effect / MTT,EC50,IIIB,,MT-4,,0.325 µM
CC(C)(C)NC(=O)c1ccccc1CCC(O)Cc1ccc2ccccc2c1C(=O)NC(C)(C)C,,EC50,,,CEM + CEM-SS,,63 µM
CC(C)C1=C2[C@H]3CC[C@@H]4[C@@]5(C)CC[C@H](OC(=O)[C@H]6C[C@@H](C(=O)O)C6(C)C)C(C)(C)[C@@H]5CC[C@@]4(C)[C@]3(C)CC[C@@]2([C@@H](O)CNC(=O)c2ccc(Cl)cc2OCCN2CCCC2)CC1=O,p24 / ELISA,EC50,92HT599,,MT-2,,<1 µM
CCOP(=O)(NCCCCCC(=O)OC)OC[C@H]1O[C@@H](n2cc(C)c(=O)[nH]c2=O)C[C@@H]1N=[N+]=[N-],ELISA,EC50,RF,,C8166,,100 µM
Oc1[nH]c(=S)[nH]c1/C=C1\C(c2ccccc2)=Nc2ccccc21,cytopathic effect / XTT,EC50,RF,,CEM + CEM-SS,,>20 µM
CC(C)C1=C2[C@H]3CC[C@@H]4[C@@]5(C)CC[C@H](OC(=O)[C@@H]6C[C@H](C(=O)O)C6(C)C)C(C)(C)[C@@H]5CC[C@@]4(C)[C@]3(C)CC[C@@]2(CCN(CCN(C)C)C(=O)c2ccc(Cl)cc2)CC1=O,p24 / ELISA,EC50,92HT599,,MT-2,,<1 µM
CCC(=O)c1ccc(F)c([C@@H]2C[C@@H]2NC(=O)Nc2ccc(C#N)cn2)c1O,β-galactosidase / luminescence,EC50,LAI,,TZM-bl,NNRTI-resistant (RT Y181I),≥0.0625 µM
C#CCO/N=C/c1cc(NC(=O)c2ccoc2C)ccc1Cl,syncytia,EC50,IIIB,,CEM,,3.3 µM
CC(C)(C)NC(=O)[C@@H]1CN(Cc2cccnc2)CCN1C[C@H](C[C@@H](Cc1ccccc1)C(=O)N[C@H]1c2ccccc2C[C@H]1O)OC(=O)COc1ccc(C[C@H](N)C(=O)O)cc1,cytopathic effect / MTT,EC50,IIIB,,MT-4,,0.08 µM
CCCCCCCCCCCCCCC(=O)Oc1ccc(OP(=O)(OCc2ccc(OC(=O)CCCC)cc2)OP(=O)(O)OP(=O)(O)OC[C@@H]2C=C[C@H](n3cc(C)c(=O)[nH]c3=O)O2)cc1,syncytia / visual reading,EC50,IIIB,,CEM/TK-,,0.69 µM
CC(=O)N(C)c1nc(C(=O)NCc2ccc(F)cc2)c(O)c2ncccc12,p24,EC50,,50% human serum,MT-4,,<0.612 µM
Cc1ccc(C)c(N/N=C/c2ccc3cccc(O)c3n2)c1,luciferase,EC50,UG070,,TZM-bl,,17.5 µM
COc1ccc(NC(=S)c2ccoc2C)cc1OCC=C(Cl)Cl,syncytia,EC50,IIIB,,CEM,,0.012 µg/mL
CCOC(=O)c1ccc2n1S(=O)(=O)c1cc(Cl)ccc1N2C(N)=O,cytopathic effect / XTT,EC50,IIIB,,MT-4,,34 µM
C=C(C)[C@@H]1CC[C@]2(NC(N)=O)CC[C@]3(C)[C@H](CC[C@@H]4[C@@]5(C)CC[C@H](OC(=O)CC(C)(C)C(=O)O)C(C)(C)[C@@H]5CC[C@]43C)[C@@H]12,RT activity,EC50,IIIB,,MT-2,,>0.199 µM
C=C(Cl)COc1cc(NC(=S)c2ccsc2C)ccc1C#N,syncytia,EC50,IIIB,,CEM,,0.03 µg/mL
CCOP(=O)(NCCCCC(=O)OC)OC[C@H]1O[C@@H](n2cc(C)c(=O)[nH]c2=O)C[C@@H]1N=[N+]=[N-],ELISA,EC50,RF,,C8166,,100 µM
COC(=O)N[C@H](C(=O)N[C@@H](Cc1ccc(-c2ccc(N3CC4CCC(C3)N4C3COC3)nc2)cc1)[C@@H](O)CN(Cc1c(F)cc(-c2ccc(N3CC4CCC(C3)N4C3COC3)nc2)cc1F)NC(=O)[C@@H](NC(=O)OC)C(C)(C)C(F)(F)F)C(C)(C)C(F)(F)F,luminescence,EC50,IIIB,,MT-4,,0.00967 µM
Cc1ccc2cccc(O)c2n1,luciferase,EC50,VB59,,TZM-bl,,3.77 µM
CCOC(=O)c1cccn1S(=O)(=O)c1cc(Cl)ccc1NC(=O)c1ccc(Cl)cc1,cytopathic effect / XTT,EC50,IIIB,,MT-4,,25 µM
COC(=O)[C@H](C)NP(=O)(OC[C@@H]1C=C[C@H](n2cc(C)c(=O)[nH]c2=O)O1)Oc1ccccc1,p24,EC50,BaL,,MM + M/M,,0.02 µM
C=C(C)[C@@H]1CC[C@]2(NC(=O)Cc3ccccc3)CC[C@]3(C)[C@H](CC[C@@H]4[C@@]5(C)CC[C@H](OC(=O)CC(C)(C)C(=O)O)C(C)(C)[C@@H]5CC[C@]43C)[C@@H]12,RT activity,EC50,IIIB,,MT-2,,>0.199 µM
CCOC(=O)c1cccn1S(=O)(=O)c1cccc(NC(C)=O)c1,cytopathic effect / XTT,EC50,IIIB,,MT-4,,>200 µM
C=C(C)[C@@H]1CC[C@]2(NC(=O)c3ccncc3)CC[C@]3(C)[C@H](CC[C@@H]4[C@@]5(C)CC[C@H](OC(=O)CC(C)(C)C(=O)O)C(C)(C)[C@@H]5CC[C@]43C)[C@@H]12,RT activity,EC50,IIIB,,MT-2,,0.2–0.999 µM
Cc1occc1C(=S)Nc1ccc(Cl)c(SCC=C(Cl)Cl)c1,syncytia,EC50,IIIB,,CEM,,0.005 µg/mL
CCCCCCCCCCCCCCCC(=O)Nc1ccn([C@H]2CC[C@@H](COP(=O)(O)O[C@H]3C[C@H](n4cc(C)c(=O)[nH]c4=O)O[C@@H]3CO)O2)c(=O)n1,cytopathic effect / XTT,EC50,AZT-resistant (RT D67N K70R T215Y K219Q),,CEM + CEM-SS,RT-D67N K70R T215Y K219Q,0.1306 µM
Cc1c(OC(=O)CCCCOc2ccc(C[C@H](NC(=O)OC(C)(C)C)C(=O)O)cc2)cccc1C(=O)N[C@@H](CSc1ccccc1)[C@@H](CN1C[C@H]2CCCC[C@H]2C[C@H]1C(=O)NC(C)(C)C)OC(=O)CCCCOc1ccc(C[C@H](NC(=O)OC(C)(C)C)C(=O)O)cc1,RT activity,EC50,LAI,,CEM,,2.2 µM
CCOC(=O)c1cccn1S(=O)(=O)c1cccc(N)c1,cytopathic effect / XTT,EC50,IIIB,,MT-4,,>200 µM
COC(=O)c1cc(O)c(O)c(O)c1,luciferase,EC50,,pseudotyped,TZM-bl,,11.9 µM
CCOC(=O)c1cccn1S(=O)(=O)c1cc(Cl)ccc1NC(=O)CN1CCOCC1,cytopathic effect / XTT,EC50,IIIB,,MT-4,,2.4 µM
COc1ccccc1C(C#N)c1nc(SC(C)C)[nH]c(=O)c1C,MTT,EC50,,,MT-4,L100I,0.04 µM
C=C(C)[C@@H]1CC[C@]2(N)CC[C@]3(C)[C@H](CC[C@@H]4[C@@]5(C)CC[C@H](OC(=O)CC(C)(C)C(=O)O)C(C)(C)[C@@H]5CC[C@]43C)[C@@H]12,RT activity,EC50,IIIB,,MT-2,,>0.199 µM
Oc1cccc2ccc(/C=N/Nc3ccc(C(F)(F)F)cc3)nc12,luciferase,EC50,VB59,,TZM-bl,,>150 µM

For reference, 4 entries again:

smiles,read by,read-out,strain,conditions,cell line,changes,value
Cc1occc1C(=S)Nc1ccc(Cl)c(SCC=C(Cl)Cl)c1,syncytia,EC50,IIIB,,CEM,,0.005 µg/mL
N[C@@H](CC(=O)N[C@@H](CC(=O)O)C(=O)O)C(=O)O,syncytia,EC90,MN,,CEM/MOLT-4,,>100 µg/mL
C=C(Cl)COc1cc(NC(=S)c2ccsc2C)ccc1C#N,syncytia,EC50,IIIB,,CEM,,0.03 µg/mL
C=C(C)[C@@H]1CC[C@]2(NC(N)=O)CC[C@]3(C)[C@H](CC[C@@H]4[C@@]5(C)CC[C@H](OC(=O)CC(C)(C)C(=O)O)C(C)(C)[C@@H]5CC[C@]43C)[C@@H]12,RT activity,EC50,IIIB,,MT-2,,>0.199 µM